Compound potency records, mixed from different reports. Data source: NIAID ChemDB in PubChem.

Shared fields: growth or infection tests; species: HIV-1; read-out: fold resistance

Neighbouring rows are from separate reports. Fold resistance: result on the changed form divided by that on wild type. An empty or dashed field is not shown.

structure	strain	method	mutations	cell line	value
Cc1cc2cn[nH]c2cc1NC(=O)COc1ccc(Cl)cc1C(=O)c1cccc(C#N)c1	HXB2 (RT-K103N G190A) Recombinant	β-galactosidase	RT-K103N G190A	HeLa + HELA CD4+	~10
CC(C)=CCOc1cc(NC(=S)c2ccoc2C)ccc1Cl	NL4-3 (RT Y188C)	cytopathic effect / XTT	RT-Y188C	CEM + CEM-SS	1.67
Cc1cc(C#N)cc(C(=O)c2cc(Cl)ccc2OCC(=O)Nc2ccc(OCCCN3CC=CC3)cc2C)c1	HXB2	β-galactosidase	RT-V106A Y181C	HeLa + HELA CD4+	~1
CCc1c(Cc2cc(C)cc(C)c2)n(COCCO)c(=O)[nH]c1=O	IIIB	syncytia	Nevirapine resistant (RT Y181C)	CEM	53.6
O=C1Nc2ccc(F)c(F)c2[C@@](C#CC2CC2)(C(F)(F)F)N1	-	-	RT-Y188L	-	83.3
Cc1cc(NS(=O)(=O)CC2CCCCC2)c(C)c(C(OC(C)(C)C)C(=O)O)c1-c1ccc2c(c1)CCCO2	NL4-3	p24 / luminescence	Y99H	MT-4	2
CCOCn1c(Sc2ccccc2)c(C(C)C)c(=O)[nH]c1=S	IIIB	syncytia	RT-E138K	CEM	10
Cc1cc2[nH]cnc2cc1NC(=O)COc1ccc(Cl)cc1C(=O)c1cc(F)cc(C(F)(F)F)c1	HXB2	β-galactosidase	RT-V106I	HeLa + HELA CD4+	~1
CC(C)=CCOc1cc(NC(=S)c2ccsc2C)ccc1Cl	HEPT-resistant (RT P236L)	cytopathic effect / XTT	RT-P236L	CEM + CEM-SS	2.5
O=C1Nc2ccc(F)c(F)c2[C@@](/C=C/C2CC2)(C(F)(F)F)N1	-	-	RT-Y181C	-	<6.32
CCc1c(Sc2cc(C)cc(C)c2)n(COCCO)c(=S)[nH]c1=O	IIIB	syncytia	Nevirapine resistant (RT Y181C)	CEM	95
CCC(=O)c1ccc(F)c([C@@H]2C[C@@H]2NC(=O)Nc2ccc(C#N)cn2)c1O	LAI	β-galactosidase / luminescence	NNRTI-resistant (RT Y188L)	TZM-bl	≥100
CCOCn1c(Sc2cc(C)cc(C)c2)c(CC)c(=O)[nH]c1=O	IIIB	syncytia	RT-Y181I	CEM	150
Cc1cc(C#N)cc(C(=O)c2cc(Cl)ccc2OCC(=O)Nc2ccc(S(N)(=O)=O)nc2C)c1	HXB2	β-galactosidase	RT-V106A Y181C	HeLa + HELA CD4+	~1
CC(C)=CCOc1cc(NC(=S)c2ccsc2C)ccc1Cl	NL4-3	p24	RT-Y188C	CEM + CEM-SS	1
N#Cc1cc(Cl)cc(Oc2c(Br)ccc(CC(=O)Nc3ccc(S(N)(=O)=O)cc3Cl)c2F)c1	-	-	Y181I	MT-4	<1
Cc1ccc(C2CC2)c(-c2cc(F)c3c(c2C)CCCO3)c1[C@H](OC1CC1)C(=O)O	NL4-3	luminescence	INSTI-resistant (IN-Y143R)	MT-4	0.4

2 of the rows above, restated:

{"structure": "Cc1cc(NS(=O)(=O)CC2CCCCC2)c(C)c(C(OC(C)(C)C)C(=O)O)c1-c1ccc2c(c1)CCCO2", "strain": "NL4-3", "method": "p24 / luminescence", "mutations": "Y99H", "cell line": "MT-4", "value": "2"}
{"structure": "CC(C)=CCOc1cc(NC(=S)c2ccoc2C)ccc1Cl", "strain": "NL4-3 (RT Y188C)", "method": "cytopathic effect / XTT", "mutations": "RT-Y188C", "cell line": "CEM + CEM-SS", "value": "1.67"}